Reference: article PMC12750222, “Cytosporone B Affects ATP Production of Trypanosoma cruzi: A Lethal Action Investigation” (ACS Omega, 2025)

Test system: T. cruzi intracellular amastigotes
Test: Antiamastigote assay in infected peritoneal macrophages (Giemsa, infection index)
Type: cell-based, Trypanosoma cruzi
Details: ratio between CC50 in NCTC cells and IC50 in intracellular amastigotes
Procedure: Murine conjunctive cells (NCTC clone 929, ATCC) and rhesus monkey kidney cells (LLC-MK2, ATCC CCL 7) were maintained in RPMI-1640 supplemented with 10% fetal bovine serum (FBS) at 37 °C in 5% CO2 humidified incubator. Peritoneal macrophages were collected by washing the peritoneal cavity of BALB/c mice with RPMI-1640 medium (Sigma-Aldrich) supplemented with 10% FBS, and were maintained at 37 °C in a 5% CO2 humidified incubator. T. cruzi trypomastigotes (Y strain) were cultivated by continuous in vitro passage in LLC-MK2, in RPMI-1640 supplemented with 2% FBS at 37 °C in 5% CO2 humidified incubator. Antitrypomastigote activity was evaluated in vitro using trypomastigotes obtained from infected LLC-MK2 cell cultures. […]
Macrophages were seeded in 16-well chamber slides (NUNC Thermo Fisher Scientific, USA) and after 24 h infected with trypomastigotes (1:5, host cell/parasite ratio) for 2 h. […] After treatment, the cells were fixed and stained with Giemsa, and the slides were analyzed under a digital light microscope (EVOS M500, Thermo Fisher Scientific, USA). The infection index was determined by counting 200 macrophages and calculating the percentage of infected cells multiplied by the average number of amastigotes per infected macrophage. […]

| Compound | SI (selectivity index) |
| --- | --- |
| CCCCCCCC(=O)c1c(O)cc(O)cc1CC(=O)O [Compound 5, Cytosporone A] | >6.7 |
| Dothiorelone Q [Compound 4] | >4.6 |
